Source: ChEMBL document CHEMBL3988442, “University of Dundee, Small-Polar-MMV Screening Library” (2021).

Each number is a percent effect as filed. How 0% and 100% were set is not recorded. Most values in the screen are low, and negative values occur. Many other results are left out here, so strong results are more common than in the screen. Two or more numbers in one place are separate tests of the same structure; such repeats can differ widely. A dash means the value is not listed here; it may have been measured.

A: 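Whole-cell growth test on Mycobacterium tuberculosis, read after 3 days in glucose-containing 7H9 medium; the read-out is not stated. Concentration: 50 µM. Higher reads as more growth inhibition (inferred: compounds with an IC50 in retests scored well above the rest). Of about 69,000 compounds tested this way, about 760 (1.1%) reached 50% or more in at least one test.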
B: 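Growth of Mycobacterium tuberculosis over 4 days (cholesterol / DPPC medium with tyloxapol); the read-out is not stated. Concentration: 50 µM. Higher reads as more growth inhibition (inferred: compounds with an IC50 in retests scored well above the rest). Of about 69,000 compounds tested this way, about 370 (0.54%) reached 50% or more in at least one test.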

Fc1cccc(-c2nnn3c2COC(CNc2ncccn2)C3)c1 (centres unmarked) read A: -24.79%.
CC(C)c1nnc(NCc2ccsc2)o1 read A: 16.23%; B: 2.025%.
Cc1ccn(-c2ccc(NCc3ccnc(N4CCCCC4)c3)nn2)n1 read B: 20.39% & -37.46%.
N[C@@H]1c2ccccc2C2(CCN(c3ccc(C(F)(F)F)cn3)CC2)[C@H]1O read A: 39.57%; B: 13.01%.
O=C(CCc1ccc(Br)cc1)NCCc1nnc[nH]1 read A: 3.313% & 123%.
Cc1ccc(CN2CC(C(=O)Nc3ccccc3)C3(CCOCC3)C2)s1.O=C(O)C(F)(F)F (centres unmarked) read A: 57.87%.
COCC(=O)NC(C)Cc1cccc(Cl)c1 (centres unmarked) read A: 62.66%.
CC(Cn1cccn1)NC(=O)Nc1ccccn1 (centres unmarked) read A: -8.15%; B: -19.58%.
COC(=O)NCC(=O)N1CCC(c2cc3ccccc3[nH]2)CC1 read A: 18.08%.
Cl.NCCNS(=O)(=O)Cc1ccc(Br)cc1 read A: -8.434%.
CN1CCCC(c2cccc(-c3cccc(F)c3)n2)C1 (centres unmarked) read A: 38.8%; B: 43.64%.
CC(O)CNCc1ccccc1C(F)(F)F.Cl (centres unmarked) read A: 55.63%.
CCCn1nnnc1CN(c1ccc(C)cc1)C(C)C read A: -18.17%.
CCOCC(O)CN1CCN(C(=O)Cc2ccc(C)nc2)CC1 (centres unmarked) read A: -29.34%.
CCCNC(=O)CNc1cc(C(=O)NCC(F)(F)F)cc(F)c1C read A: -7.13%; B: -10.78% & 5.1%.
COCC(=O)Nc1nnc2n(Cc3cccc(OC)c3)[nH]c(C)c1-2 read A: -1.489% & 4.843%.
CC(C#N)NS(=O)(=O)c1cccc(C(C)C)c1 (centres unmarked) read A: 5.515% & 30.34%.
CCS(=O)(=O)c1nccn1-c1cccc(F)c1 read A: 30.47%; B: 5.224%.
CCC(C)Oc1ccc(CNCCc2c[nH]cn2)cc1Cl (centres unmarked) read B: 25.25%.
FC1(F)CCN(Cc2ccncc2)CC12CCN(c1cccnc1)C2.O=C(O)C(F)(F)F.O=C(O)C(F)(F)F.O=C(O)C(F)(F)F (centres unmarked) read A: 0.7862%; B: 11%.
CN1CCC(c2cccc(Cc3ccc(C(F)(F)F)cc3)n2)CC1 read A: 51.26%.
Cc1ccc(-c2cc(CNC(=O)NC3CCCCNC3=O)on2)cc1 (centres unmarked) read B: 7.711%.
O=C(c1cc(C2CC2)[nH]n1)N1CCN(Cc2ccccc2)CC1 read A: 51% & 31.19%; B: 17.31%.
O=C(NCCn1ccnc1)c1ccn(-c2ccc(F)cc2)n1 read A: -7.337%; B: -9.786%.
Cc1ccc2[nH]c(CN(C)Cc3n[nH]c4c3CCC4)nc2c1 read A: 15%.
Cc1ccc(CN2CCC3(CC(=O)N(c4ccc5c(c4)OCO5)C3)C2)o1 (centres unmarked) read A: 24.65%.
COc1cc(C(=O)Nc2nc(C)no2)cc(OC)c1Br read A: 25.68%.
CC(=O)Nc1nc(-c2ccccc2)c[nH]1 read A: -10.64%; B: -3.051%.
O=C(c1cc(COc2ccc3c(c2)OCO3)[nH]n1)N1CCCC1 read B: 34.25%.
CCN1CCN(C(=O)c2c[nH]c(C(C)C)n2)c2ccccc21 read A: 4.349% & -8.705%.
O=C(c1cnn2c(-c3ccco3)ccnc12)N1CCCCCC1 read A: 33.38%.
Cc1cccc(NC2CCN(C(=O)Nc3ccncc3)CC2)n1 read A: -3.858% & -2.954%.
CC(=O)NCCCNCc1cc(F)ccc1Br read A: 36.6% & 8.909%.

Some entries from above, unchanged:

SMILES	A	B
COCC(=O)Nc1nnc2n(Cc3cccc(OC)c3)[nH]c(C)c1-2	-1.489 & 4.843	-
CN1CCC(c2cccc(Cc3ccc(C(F)(F)F)cc3)n2)CC1	51.26	-
CC(C#N)NS(=O)(=O)c1cccc(C(C)C)c1 (centres unmarked)	5.515 & 30.34	-